Compound potency records, mixed from different reports. Data source: NIAID ChemDB in PubChem.

All rows: tests in culture; organism: HIV-1; cells: MT-2; endpoint: EC50

ECn: concentration that inhibits the pathogen or its effect by n%. Blank or dashed fields: not listed here. Neighbouring rows are from separate reports. a–b is a range or a potency band.

SMILES	strain or isolate	mutations	read by	setting	value
COc1ccc(NC(=O)[C@H](Cc2ccccc2)NS(=O)(=O)NC(=O)N[C@@H](Cc2ccccc2)C(=O)N(C)c2ccc(OC)cc2)cc1	NL4-3		luciferase		12.37 µM
O=C(NCc1ccc(F)cc1S(=O)(=O)N1CCOCC1)c1nc2n(c(=O)c1O)CCCOC21CCN(C(=O)OCc2ccccc2)CC1	NL4-3		luciferase / reporter gene		0.01–0.1 µM
CC(C)C1=C2[C@H]3CC[C@@H]4[C@@]5(C)CC[C@H](OC(=O)CC(C)(C)C(=O)O)C(C)(C)[C@@H]5CC[C@@]4(C)[C@]3(C)CC[C@@]2(NC(=O)c2ccn(C)n2)CC1=O	IIIB		RT activity	30% human serum	<0.199 µM
CC(C)C1=C2[C@H]3CC[C@@H]4[C@@]5(C)CC[C@H](OC(=O)[C@H]6C[C@@H](C(=O)O)C6(C)C)C(C)(C)[C@@H]5CC[C@@]4(C)[C@]3(C)CC[C@@]2([C@@H](O)CNC(=O)[C@H]2CCCNC2)CC1=O	92HT599		p24 / ELISA		<1 µM
CC(C)C1=C2C3CCC4[C@@]5(C)CC[C@H](OC(=O)CC(C)(C)C(=O)O)C(C)(C)C5CC[C@@]4(C)[C@]3(C)CC[C@@]2(NC(=O)NC2CCNCC2)CC1=O	IIIB		RT activity	30% human serum	>1 µM
CN(C)C(=O)C(=O)N1CCC2(CC1)OCCCn1c2nc(C(=O)NCc2ccc(F)cc2)c(O)c1=O	NL4-3		luciferase / reporter gene		0.01–0.1 µM
CC(C)(C#N)CNC(=O)[C@@]1(C)Cn2c(=O)c(C(=O)NC3CC3)c(O)c3ncc(Cc4ccc(F)cc4)c(c32)O1	IIIB		ATP / luminescence		0.029 µM
COC(=O)N1CCC2(CC1)OCCCn1c2nc(C(=O)NCc2ccc(F)cc2)c(O)c1=O	NL4-3		luciferase / reporter gene		0.001–0.01 µM
C#C[C@@]1(CO)C=C[C@H](n2cc(C)c(=O)[nH]c2=O)O1	Clinical isolate	A62V/V75I/F77L/F116L/Q151M/M184V	recombinant virus assay		8.075 µM
COc1ccc(N(C)C(=O)[C@H](Cc2ccccc2)Nc2ccnc(N[C@@H](Cc3ccccc3)C(=O)N(C)c3ccc(OC)cc3)n2)cc1	NL4-3		luciferase		12.04 µM
CC(C)C1=C2[C@H]3CC[C@@H]4[C@@]5(C)CC[C@H](OC(=O)[C@H]6C[C@@H](C(=O)O)C6(C)C)C(C)(C)[C@@H]5CC[C@@]4(C)[C@]3(C)CC[C@@]2([C@@H](O)CNCC(C)(C)NC(=O)c2ccc(N3CCOCC3)cc2)CC1=O	92HT599		p24 / ELISA		<1 µM
Cc1ccc(S(=O)(=O)N2CCC3(CC2)OCCn2c3nc(C(=O)NCc3ccc(F)cc3-n3cncn3)c(O)c2=O)cc1	NL4-3		luciferase / reporter gene		0.001–0.01 µM
CC(C)C1=C2C3CCC4[C@@]5(C)CC[C@H](OC(=O)CC(C)(C)C(=O)O)C(C)(C)C5CC[C@@]4(C)[C@]3(C)CC[C@@]2(NC(=O)OC2CCC2)CC1=O	IIIB		RT activity	30% human serum	<0.199 µM
COc1ccnc2[nH]cc(C(=O)C(=O)N3CCN(C(=O)c4ccccc4)C[C@H]3C)c12	LAI(GP120-M426L) Recombinant	GP120-M426L	RT activity		0.462 µM
CC(C)C1=C2[C@H]3CC[C@@H]4[C@@]5(C)CC[C@H](OC(=O)CC(C)(C)C(=O)O)C(C)(C)[C@@H]5CC[C@@]4(C)[C@]3(C)CC[C@@]2(NC(=O)CN2CCN(C)CC2)CC1=O	IIIB		RT activity	30% human serum	<0.199 µM
CCNC(=O)[C@]1(C)Cn2c(=O)c(C(=O)NC)c(O)c3ncc(Cc4ccc(F)cc4)c(c32)O1	IIIB		ATP / luminescence		0.0145 µM
Nc1nc(NC2CC2)c2ncn([C@H]3C=C[C@@H](CO)C3)c2n1	Clinical isolate	M41L/K67N/K70R/A98G/K101E/M184V/G190A/L210W/T215Y/K219E	recombinant virus assay		0.968 µM
CNC(=O)c1c(O)c2ncc(Cc3ccc(F)cc3)c3c2n(c1=O)C[C@](C)(C(=O)N1CCCC1)O3	IIIB		ATP / luminescence		0.022 µM
COc1ccc(N(C)C(=O)[C@H](Cc2ccccc2)NC(=O)CN(CCO)CC(=O)N[C@@H](Cc2ccccc2)C(=O)N(C)c2ccc(OC)cc2)cc1	NL4-3		luciferase		2.49 µM
CCN(CC)C(=O)[C@@]1(C)Cn2c(=O)c(C(=O)NC)c(O)c3ncc(Cc4ccc(F)cc4)c(c32)O1	IIIB		ATP / luminescence		0.0079 µM
COc1ccc(N(C)C(=O)[C@H](Cc2ccccc2)NC(=O)N[C@@H](Cc2ccccc2)C(=O)N(C)c2ccc(OC)cc2)cc1	NL4-3		luciferase		2.86 µM
Cc1ccc(C)n1-c1ccc(C(=O)O)c(O)c1	IIIB		p24		1.1 µM
CC(C)C1=C2[C@H]3CC[C@@H]4[C@@]5(C)CC[C@H](OC(=O)[C@H]6C[C@@H](C(=O)O)C6(C)C)C(C)(C)[C@@H]5CC[C@@]4(C)[C@]3(C)CC[C@@]2(CC(=O)NCC(C)(C)NC(=O)c2ccc(OCCN3CCOCC3)cc2)CC1=O	92HT599		p24 / ELISA		<1 µM
CC(C)C1=C2C3CCC4[C@@]5(C)CC[C@H](OC(=O)CC(C)(C)C(=O)O)C(C)(C)C5CC[C@@]4(C)[C@]3(C)CC[C@@]2(NC(=O)N2CC[C@@H](N)C2)CC1=O	IIIB		RT activity	30% human serum	0.2–0.999 µM
Cc1ccc(S(=O)(=O)N2CCC3(CC2)OCCn2c3nc(C(=O)NCc3ccc(F)cc3-n3ncnc3C)c(O)c2=O)cc1	NL4-3		luciferase / reporter gene		0.001–0.01 µM
CC(C)C1=C2[C@H]3CC[C@@H]4[C@@]5(C)CC[C@H](OC(=O)[C@H]6C[C@@H](C(=O)O)C6(C)C)C(C)(C)[C@@H]5CC[C@@]4(C)[C@]3(C)CC[C@@]2([C@@H](O)CNC[C@@H](CO)NC(=O)c2ccc(Cl)cc2)CC1=O	92HT599		p24 / ELISA		<1 µM
CC(C)C1=C2C3CCC4[C@@]5(C)CC[C@H](OC(=O)CC(C)(C)C(=O)O)C(C)(C)C5CC[C@@]4(C)[C@]3(C)CC[C@@]2(NC(=O)c2ccsc2)CC1=O	IIIB		RT activity	30% human serum	<0.199 µM
CC(C)C1=C2[C@H]3CC[C@@H]4[C@@]5(C)CC[C@H](OC(=O)[C@H]6C[C@@H](C(=O)O)C6(C)C)C(C)(C)[C@@H]5CC[C@@]4(C)[C@]3(C)CC[C@@]2(CCNC[C@@H](CO)NC(=O)c2ccc(Cl)cc2)CC1=O	92HT599		p24 / ELISA		<1 µM
CC(C)NC(=O)N[C@@]12CC[C@]3(C)[C@H](CC[C@@H]4[C@@]5(C)CC[C@H](OC(=O)CC(C)(C)C(=O)O)C(C)(C)[C@@H]5CC[C@]43C)C1=C(C(C)C)C(=O)C2	IIIB		RT activity	30% human serum	<0.199 µM
CC(C)C1=C2[C@H]3CC[C@@H]4[C@@]5(C)CC[C@H](OC(=O)[C@H]6C[C@@H](C(=O)O)C6(C)C)C(C)(C)[C@@H]5CC[C@@]4(C)[C@]3(C)CC[C@@]2(CC(=O)NC(C)(C)c2ccccc2)CC1=O	92HT599		p24 / ELISA		<1 µM
CC(C)C1=C2C3CCC4[C@@]5(C)CC[C@H](OC(=O)CC(C)(C)C(=O)O)C(C)(C)C5CC[C@@]4(C)[C@]3(C)CC[C@@]2(NC(=O)[C@H]2CCCN2C(=O)OC(C)(C)C)CC1=O	IIIB		RT activity	30% human serum	<0.199 µM
CNC(=O)c1c(O)c2ncc(Cc3ccc(F)cc3)c3c2n(c1=O)C[C@@](C)(C(=O)OC)O3	IIIB		ATP / luminescence		0.0227 µM
CC(C)C1=C2[C@H]3CC[C@@H]4[C@@]5(C)CC[C@H](OC(=O)[C@H]6C[C@@H](C(=O)O)C6(C)C)C(C)(C)[C@@H]5CC[C@@]4(C)[C@]3(C)CC[C@@]2(CC(=O)NCCc2ccc(Cl)cc2)CC1=O	92HT599		p24 / ELISA		<1 µM
CC(C)C1=C2C3CCC4[C@@]5(C)CC[C@H](OC(=O)CC(C)(C)C(=O)O)C(C)(C)C5CC[C@@]4(C)[C@]3(C)CC[C@@]2(NC(=O)N[C@@H](C)C2CCCCC2)CC1=O	IIIB		RT activity	30% human serum	<0.199 µM
CN(C(=O)[C@H](Cc1cc(F)cc(F)c1)NC(=O)NS(=O)(=O)N[C@@H](Cc1cc(F)cc(F)c1)C(=O)N(C)c1ccc2c(c1)OCCO2)c1ccc2c(c1)OCCO2	NL4-3		luciferase		0.07 µM

Repeating the first 3 entries:

SMILES | strain or isolate | mutations | read by | setting | value
COc1ccc(NC(=O)[C@H](Cc2ccccc2)NS(=O)(=O)NC(=O)N[C@@H](Cc2ccccc2)C(=O)N(C)c2ccc(OC)cc2)cc1 | NL4-3 |  | luciferase |  | 12.37 µM
O=C(NCc1ccc(F)cc1S(=O)(=O)N1CCOCC1)c1nc2n(c(=O)c1O)CCCOC21CCN(C(=O)OCc2ccccc2)CC1 | NL4-3 |  | luciferase / reporter gene |  | 0.01–0.1 µM
CC(C)C1=C2[C@H]3CC[C@@H]4[C@@]5(C)CC[C@H](OC(=O)CC(C)(C)C(=O)O)C(C)(C)[C@@H]5CC[C@@]4(C)[C@]3(C)CC[C@@]2(NC(=O)c2ccn(C)n2)CC1=O | IIIB |  | RT activity | 30% human serum | <0.199 µM